Results of unrelated studies side by side (data: NIAID ChemDB).

Common to all: tests in culture; species: HIV-1; cell line: MT-4; measure: fold resistance

Blank or dashed fields: not listed here.

smiles | strain | changes | read by | result
CC(=O)c1ccc(C)cc1NC(C(N)=O)c1c(Cl)cccc1Cl | Recombinant mutant | RT-E138A | cytopathic effect / MTT | 2.1
CCOC(=O)/C=C/c1cccc(C(=O)c2c(CC)c(C)[nH]c(=O)c2N(C)C)c1 |  | RT-Y188L | cytopathic effect / MTT | 32.6
O=c1[nH]cnc2c1ncn2[C@H]1CC[C@@H](CO)O1 | XM-Q151M | RT-A62V V75I F77C F116Y Q151M | p24 | 7.8
COC(=O)N[C@H](C(=O)N[C@@H](Cc1ccccc1)[C@@H](O)CN(Cc1ccc(-c2ccccn2)cc1)NC(=O)[C@@H](NC(=O)OC)C(C)(C)C)C(C)(C)C | NL4-3 | L10I N37D G48V I54V L63P G73C I84V L90M | p24 / luminescence | >213
O=C1N(Cc2ccc(CO)cc2)[C@H](COc2ccccc2)[C@H](O)[C@@H](O)[C@@H](COc2ccccc2)N1Cc1ccc(CO)cc1 | IIIB | PR-I84V L90M | cytopathic effect / XTT | 2.86
COc1cncc(-c2cnc(C(C)(C)N3CCN(C[C@@H](O)C[C@@H](Cc4nnc(-c5ccccc5)o4)C(=O)N[C@H]4c5ccccc5OC[C@H]4O)[C@H](C(=O)NCC(F)(F)F)C3)o2)c1 | V-18 Clinical isolate | PR-L10I M36I N37D M46I R57K L63P A71V G73S I84V L90M I93L | p24 | >8
Cc1cn([C@H]2C[C@H](N=[N+]=[N-])[C@@H](CO)O2)c(=O)[nH]c1=O | XM-Q151M | RT-A62V V75I F77C F116Y Q151M | p24 | 6050
O=c1[nH]cnc2c1ncn2[C@H]1CC[C@@H](CO)O1 | AJ-05.93 (HXB2(RT-L74V)) | RT-L74V | cytopathic effect | 3.38
CCc1c(C)[nH]c(=O)c(N(C)C)c1C(=O)c1cccc(C#N)c1 |  | RT-K101E K103N | cytopathic effect / MTT | 14
CC(C)=CCN1c2cc(Cl)cc3[nH]c(=S)n(c23)C[C@@H]1C |  | RT-M41L T215Y L100I |  | 2
CCc1c(C)[nH]c(=O)c(N(C)C)c1Cc1cccc(/C=C/C#N)c1 |  | RT-K103N Y181C | cytopathic effect / MTT | 80
CC(C)Nc1cccnc1N1CCN(C(=O)c2cc3cc(NS(C)(=O)=O)ccc3[nH]2)CC1 | BI-03.97 (HXB2(RT-A62V S68G T69D V75I F77L F116Y Q151M)) | RT-A62V S68G T69D V75I F77L F116Y Q151M | cytopathic effect | 2
Cc1cn([C@H]2C[C@H](N=[N+]=[N-])[C@@H](CO)O2)c(=O)[nH]c1=O |  | Y188L | MTT | 0.5
CC(C)=CCN1Cc2cc(Cl)cc3[nH]c(=S)n(c23)C[C@@H]1C | Recombinant mutant | RT-A98S | cytopathic effect / MTT | 0.5
O=C(N[C@H]1c2ccccc2OC[C@H]1O)[C@H](Cc1nnco1)C[C@H](O)CN1CCN(Cc2ccc(-c3ccc(Cl)cc3)o2)C[C@H]1C(=O)NCC(F)(F)F | Q-60 Clinical isolate | PR-L10I N37S R41K M46I I54V I62V L63P A71V V77I V82A L90M I93L | p24 | 0.49
CCc1c(C)[nH]c(=O)c(N(C)C)c1C(=O)c1cc(Cl)cc(Cl)c1 |  | RT-K101E | cytopathic effect / MTT | 6
Cc1cn([C@H]2C[C@H](N=[N+]=[N-])[C@@H](CO)O2)c(=O)[nH]c1=O | 126 BCH-189 (RT-M184V) | RT-M184V | p24 | 0.75
CCc1c(C)[nH]c(=O)c(N(C)C)c1Cc1cccc(F)c1 |  | RT-K103N | cytopathic effect / MTT | 31.5
CC(C)(c1ncc(-c2ccc(Cl)cc2)o1)N1CCN(C[C@@H](O)C[C@@H](Cc2nnco2)C(=O)N[C@H]2c3ccccc3OC[C@H]2O)[C@H](C(=O)NCC(F)(F)F)C1 | Q-60 Clinical isolate | PR-L10I N37S R41K M46I I54V I62V L63P A71V V77I V82A L90M I93L | p24 | 0.248
CCc1c(C)[nH]c(=O)c(N(C)C)c1C(=O)c1cccc(Br)c1 |  | RT-E138K | cytopathic effect / MTT | 2.5
CC(C)CN(C[C@@H](O)[C@H](Cc1ccccc1)NC(=O)O[C@H]1CCOC1)S(=O)(=O)c1ccc(N)cc1 | NL4-3 | L10F L33I M36I M46I I54V K55R I62V L63P A71V G73S V82T | p24 / luminescence | >27
Nc1ccn([C@H]2CC[C@@H](CO)O2)c(=O)n1 | FO-08.96 (HXB2 RT F77L F116Y Q151M) | RT-F77L F116Y Q151M | cytopathic effect | >23.4
CC(C)(c1ncc(-c2ccc(Cl)cc2)o1)N1CCN(C[C@@H](O)C[C@@H](Cc2nnc(-c3ccccc3)o2)C(=O)N[C@H]2c3ccccc3OC[C@H]2O)[C@H](C(=O)NCC(F)(F)F)C1 | V-18 Clinical isolate | PR-L10I M36I N37D M46I R57K L63P A71V G73S I84V L90M I93L | p24 | ≥15.6
CCc1c(C)[nH]c(=O)c(N(C)C)c1C(=O)c1cccc(CC#N)c1 |  | RT-Y181C | cytopathic effect / MTT | 126
CC(C)(C)NC(=O)[C@@H]1C[C@@H]2CCCC[C@@H]2CN1C[C@@H](O)[C@H](Cc1ccccc1)NC(=O)[C@H](CC(N)=O)NC(=O)c1ccc2ccccc2n1 | NL4-3 | PR-L63P V82T | p24 | 1
O=c1[nH]cnc2c1ncn2[C@H]1CC[C@@H](CO)O1 | Recombinant mutant | RT-E138A | cytopathic effect / MTT | 0.9
CCN[C@H]1CO[C@@H]2OCC[C@H](OC(=O)N[C@@H](Cc3cccc(OC)c3)[C@H](O)CN(CC(C)C)S(=O)(=O)c3ccc4nc(NC(C)C)sc4c3)[C@@H]21 | NL4-3 | L10I I15V K20R L24I V32I M36I M46I I54V I62V L63P K70Q V82A L88M | p24 / luminescence | 0.5
Cc1cc(C#N)cc(C)c1Oc1nc(Nc2ccc(C#N)cc2)ncc1SCC(=O)N1CCSCC1 |  | L100I | MTT | 9.8
CCc1c(C)[nH]c(=O)c(N(C)C)c1C(=O)c1cccc(/C=C/C#N)c1 |  | RT-L100I K103N | cytopathic effect / MTT | 25
CC(=O)c1ccccc1NC(C(N)=O)c1c(Cl)cccc1Cl | DLV-resistant IIIB (RT-L100I) | RT-L100I | p24 | 43.3
CCc1cc(NCc2nc3c(Cl)ccc(Cl)c3o2)c(=O)[nH]c1C | NL4-3 | RT-K101D L100I | p24 | >30
CC(C)CN(C[C@@H](O)[C@H](Cc1ccccc1)NC(=O)[C@H](CC(N)=O)NC(=O)c1ccc2ccccc2n1)C(=O)NC(C)(C)C | NL4-3 | PR-L63P V82T I84V | p24 | 7.5
COc1ccc(S(=O)(=O)N(CC(C)C)C[C@@H](O)[C@H](Cc2ccccc2)NC(=O)O[C@H]2CCO[C@H]3OC[C@H](O)[C@H]32)cc1 | NL4-3 | L10I I15V K20R L24I V32I M36I M46I I54V I62V L63P K70Q V82A L88M | p24 / luminescence | 4
Cc1nnc(C[C@H](C[C@H](O)CN2CCN(C(C)(C)c3ncc(-c4ccc(F)cc4)o3)C[C@H]2C(=O)NCC(F)(F)F)C(=O)N[C@H]2c3ccccc3OC[C@H]2O)o1 | V-18 Clinical isolate | PR-L10I M36I N37D M46I R57K L63P A71V G73S I84V L90M I93L | p24 | 0.504
Cc1cn([C@@H]2O[C@H](CO[Si](C)(C)C(C)(C)C)C3(OS(=O)(=O)C=C3N)[C@H]2O[Si](C)(C)C(C)(C)C)c(=O)n(C)c1=O | Recombinant mutant | RT-A98S E138A | cytopathic effect / MTT | 5.7
CC(C)CN(C[C@@H](O)[C@H](Cc1ccccc1)NC(=O)O[C@H]1CCOC1)S(=O)(=O)c1ccc(N)cc1 | NL4-3 | PR-D30N M46I A71V | p24 | 0.5
CC(C)(c1ncc(-c2ccc(F)cc2)o1)N1CCN(C[C@@H](O)C[C@@H](Cc2nnco2)C(=O)N[C@H]2c3ccccc3OC[C@H]2O)[C@H](C(=O)NCC(F)(F)F)C1 | V-18 Clinical isolate | PR-L10I M36I N37D M46I R57K L63P A71V G73S I84V L90M I93L | p24 | 1
Cc1cn([C@H]2C[C@H](N=[N+]=[N-])[C@@H](CO)O2)c(=O)[nH]c1=O | HXB2D (RT-M184V) | RT-M184V | p24 | 1.25
COc1ccc2c(c1)N(C(=O)OC(C)C)[C@@H](CSC)C(=S)N2 | IIIB | RT-E138K | cytopathic effect / MTT | 3
CN[C@H]1CO[C@@H]2OCC[C@H](OC(=O)N[C@@H](Cc3ccccc3)[C@H](O)CN(CC(C)C)S(=O)(=O)c3ccc4nc(NC5CC5)sc4c3)[C@@H]21 | NL4-3 | L23I E34Q K43I M46I I50L G51A L63P A71V V82A T91A | p24 / luminescence | 0.7

For reference, 3 entries again:

smiles | strain | changes | read by | result
Cc1cn([C@H]2C[C@H](N=[N+]=[N-])[C@@H](CO)O2)c(=O)[nH]c1=O | 126 BCH-189 (RT-M184V) | RT-M184V | p24 | 0.75
CCc1c(C)[nH]c(=O)c(N(C)C)c1C(=O)c1cccc(C#N)c1 |  | RT-K101E K103N | cytopathic effect / MTT | 14
CC(C)CN(C[C@@H](O)[C@H](Cc1ccccc1)NC(=O)[C@H](CC(N)=O)NC(=O)c1ccc2ccccc2n1)C(=O)NC(C)(C)C | NL4-3 | PR-L63P V82T I84V | p24 | 7.5

Lines come from different laboratories, so protocols vary. Fold resistance: result on the changed form divided by that on wild type.